Laboratory results reported in patent US20220380347A1.

The chains behind the UniProt entries cited, without tags or fusion partners. Residues count along the entry.
UniProt P0C6X1, 2966-3267 limits assumed: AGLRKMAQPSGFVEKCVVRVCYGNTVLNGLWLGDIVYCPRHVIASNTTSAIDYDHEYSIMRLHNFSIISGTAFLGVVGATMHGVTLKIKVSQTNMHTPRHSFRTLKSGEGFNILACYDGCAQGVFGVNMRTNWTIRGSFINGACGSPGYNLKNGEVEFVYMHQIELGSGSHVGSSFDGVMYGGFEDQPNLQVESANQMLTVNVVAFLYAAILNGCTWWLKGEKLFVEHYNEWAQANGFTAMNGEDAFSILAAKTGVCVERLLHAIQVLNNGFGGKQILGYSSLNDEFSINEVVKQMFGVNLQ

How the values were obtained:
HCoV 229E = HCoV 229E cytopathic effect; format: cell-based, human coronavirus (HCov) 229E; conditions: read-out: 229E CPE EC50; protection of virus-induced CPE
229E Mpro = 229E Mpro (Human coronavirus 229E, UniProt P0C6X1); test: 229E Mpro enzymatic assay; conditions: read-out: 229E Mpro EC50
[1] = biological target: COVID-19 (nCoV-2019, SARS-CoV2) Mpro (Severe acute respiratory syndrome coronavirus 2, UniProt P0DTD1); test: COVID-19; format: biochemical; conditions: read-out: COVID-19 Mpro IC50; 25 nM Mpro, 25 μM substrate
[2] = test system: cells without virus infection
HCov OC43 = conditions: read-out: OC43 IC50 (uM) MEDIAN

`CC(C)(C)NC(=O)C(c1cccnc1)N(C(=O)[C@H]1CCCN1C#N)c1ccc(C(C)(C)C)cc1` (single isomer, unassigned) was tested, and the EC50 (HCoV 229E) was < 2000 nM and the EC50 (229E Mpro) was < 2000 nM.

For `CC(C)(C)c1ccc(N(C(=O)C2N(C#N)CC2(C)C)C(C(=O)NC2CCCCC2)c2cccnc2)cc1` (single isomer, unassigned), the EC50 (HCoV 229E) was 2000 to 10000 nM, the EC50 (229E Mpro) was < 2000 nM and the IC50 [1] was < 2 µM. The CC50 [2] was 2 to 10 µM.

For `CC(C)(C)c1ccc(N(C(=O)[C@H]2CCCN2C#N)C(C(=O)NC2CCC(F)(F)CC2)c2cccnc2)cc1` (single isomer, unassigned), the EC50 (HCoV 229E) was < 2000 nM and the EC50 (229E Mpro) was < 2000 nM.

With `CC(C)(C)c1ccc(N(C(=O)[C@H]2CCCN2C#N)C(C(=O)NC2CCCCC2)c2cncc3ccccc23)cc1` (single isomer, unassigned) the EC50 (HCoV 229E) was < 2000 nM, the EC50 (229E Mpro) was < 2000 nM and the IC50 (HCov OC43) was 2 to 10 µM. For the same compound, the CC50 [2] was 2 to 10 µM.

`CC(C)(C)c1ccc(N(C(=O)[C@H]2CSCCN2C#N)C(C(=O)NC2CCCCC2)c2cccnc2)cc1` (single isomer, unassigned) was tested, and the EC50 (HCoV 229E) was 2000 to 10000 nM, the EC50 (229E Mpro) was < 2000 nM and the CC50 [2] was > 30 µM.

For `CC(C)(C)c1ccc(N(C(=O)[C@H]2C[C@@H](O)CN2C#N)C(C(=O)NC2CCCCC2)c2cncc(F)c2)cc1` (single isomer, unassigned), the EC50 (HCoV 229E) was < 2000 nM, the EC50 (229E Mpro) was < 2000 nM and the CC50 [2] was 10 to 30 µM.

With `N#CN1CCC[C@@H]1C(=O)N(c1ccc(C2CC2)cc1)C(C(=O)NC1CCCCC1)c1cccnc1` (single isomer, unassigned) the EC50 (HCoV 229E) was < 2000 nM, the EC50 (229E Mpro) was < 2000 nM and the IC50 (HCov OC43) was 2 to 10 µM. The CC50 [2] was > 30 µM.

`NC(=O)c1nc(C2CC2)ccc1N(C(=O)c1cnc[nH]1)C(C(=O)NC1CCCCC1)c1cccnc1` (single isomer, unassigned) [120 Isomer 1] was tested, and the EC50 (229E Mpro) was 10000 to 30000 nM and the IC50 [1] was > 30 µM.

`NC(=O)c1nc(C2CC2)ccc1N(C(=O)c1cnc[nH]1)C(C(=O)NC1CCCCC1)c1cccnc1` (single isomer, unassigned) [120 Isomer 2] was tested, and the EC50 (229E Mpro) was 10000 to 30000 nM and the IC50 [1] was 10 to 30 µM.

For `CC1(C)CN(C#N)[C@@H](C(=O)N(c2ccc(C(C)(C)C)cc2)C(C(=O)NC2CCCCC2)c2cccnc2)CO1` (single isomer, unassigned) [208 Isomer 1], the EC50 (HCoV 229E) was 2000 to 10000 nM and the EC50 (229E Mpro) was 2000 to 10000 nM.

For `CC1(C)CN(C#N)[C@@H](C(=O)N(c2ccc(C(C)(C)C)cc2)C(C(=O)NC2CCCCC2)c2cccnc2)CO1` (single isomer, unassigned) [208 Isomer 2], the EC50 (HCoV 229E) was < 2000 nM, the EC50 (229E Mpro) was < 2000 nM and the IC50 (HCov OC43) was 2 to 10 µM.

With `CC(C)(C)c1ccc(N(C(=O)[C@H]2CCCN2C#N)C(C(=O)NC2CC2)c2cccnc2)cc1` (single isomer, unassigned) [459 Isomer 1] the EC50 (HCoV 229E) was < 2000 nM, the EC50 (229E Mpro) was < 2000 nM and the IC50 (HCov OC43) was 2 to 10 µM.

With `CC(C)(C)NC(=O)C(c1cccnc1)N(C(=O)[C@H]1C[C@@H](O)CN1C#N)c1ccc(C(C)(C)C)cc1` (single isomer, unassigned) [579 Isomer 1] the EC50 (HCoV 229E) was < 2000 nM, the EC50 (229E Mpro) was < 2000 nM and the IC50 (HCov OC43) was < 2 µM.

`CC(C)(C)c1ccc(N(C(=O)[C@H]2C[C@@H](O)CN2C#N)C(C(=O)NC2CCC(F)(F)CC2)c2cccnc2)cc1` (single isomer, unassigned) [583 Isomer 1] was tested, and the EC50 (HCoV 229E) was < 2000 nM, the EC50 (229E Mpro) was < 2000 nM and the IC50 (HCov OC43) was < 2 µM. The CC50 [2] was > 30 µM.

With `CC(C)(C)c1ccc(N(C(=O)[C@H]2C[C@@H](O)CN2C#N)C(C(=O)NC2CCC(F)(F)CC2)c2cccnc2)cc1` (single isomer, unassigned) [583 Isomer 2] the EC50 (HCoV 229E) was 2000 to 10000 nM, the EC50 (229E Mpro) was < 2000 nM and the IC50 (HCov OC43) was < 2 µM. For the same compound, the CC50 [2] was > 30 µM.

In the case of `CO[C@@H]1C[C@H](C(=O)N(c2ccc(C(C)(C)C)cc2)C(C(=O)NC2CCC(F)(F)CC2)c2cccnc2)N(C#N)C1` (single isomer, unassigned) [1139 Isomer 1], the EC50 (HCoV 229E) is reported as < 2000 nM, the EC50 (229E Mpro) is reported as < 2000 nM and the IC50 (HCov OC43) is reported as < 2 µM.

With `CO[C@@H]1C[C@H](C(=O)N(c2ccc(C(C)(C)C)cc2)C(C(=O)NC2CCC(F)(F)CC2)c2cccnc2)N(C#N)C1` (single isomer, unassigned) [1139 Isomer 2] the EC50 (HCoV 229E) was 2000 to 10000 nM, the EC50 (229E Mpro) was < 2000 nM and the IC50 (HCov OC43) was 2 to 10 µM.

In the case of `CO[C@@H]1C[C@H](C(=O)N(c2ccc(S(F)(F)(F)(F)F)cc2)C(C(=O)NC(C)C2CCN(C(=O)OC(C)(C)C)C2)c2cccnc2)N(C#N)C1` (single isomer, unassigned) [1293 Isomer 4], the EC50 (229E Mpro) is reported as < 2000 nM and the IC50 (HCov OC43) is reported as 2 to 10 µM.

With `CC(C)(C)c1ccc(N(C(=O)[C@H]2COCCN2C#N)C(C(=O)NC2CCC(F)(F)CC2)c2cccnc2)cc1` (single isomer, unassigned) [1297 Isomer 1] the EC50 (229E Mpro) was < 2000 nM and the IC50 (HCov OC43) was 10 to 30 µM.

For `CC(C)(C)c1ccc(N(C(=O)[C@H]2COCCN2C#N)C(C(=O)NC2CCC(F)(F)CC2)c2cccnc2)cc1` (single isomer, unassigned) [1297 Isomer 2], the EC50 (229E Mpro) was < 2000 nM and the IC50 (HCov OC43) was < 2 µM.

In the case of `N#CN1CCOC[C@@H]1C(=O)N(c1ccc(S(F)(F)(F)(F)F)cc1)C(C(=O)NC1CCC(F)(F)CC1)c1cccnc1` (single isomer, unassigned) [1315 Isomer 1], the EC50 (229E Mpro) is reported as < 2000 nM and the IC50 (HCov OC43) is reported as < 2 µM.

For `N#CN1CCOC[C@@H]1C(=O)N(c1ccc(S(F)(F)(F)(F)F)cc1)C(C(=O)NC1CCC(F)(F)CC1)c1cccnc1` (single isomer, unassigned) [1315 Isomer 2], the EC50 (229E Mpro) was < 2000 nM and the IC50 (HCov OC43) was 2 to 10 µM.

With `O=C(NC1CCC(F)(F)CC1)C(c1cnccc1C(F)(F)F)N(C(=O)c1cnc[nH]1)c1ccc(C2CC2)cc1F` (single isomer, unassigned) [1338 Isomer 1] the EC50 (229E Mpro) was < 2000 nM and the IC50 (HCov OC43) was 2 to 10 µM.

With `O=C(NC1CCC(F)(F)CC1)C(c1cnccc1C(F)(F)F)N(C(=O)c1cnc[nH]1)c1ccc(C2CC2)cc1F` (single isomer, unassigned) [1338 Isomer 2] the EC50 (229E Mpro) was 10000 to 30000 nM and the IC50 (HCov OC43) was 10 to 30 µM.

`C[C@@]1(O)C[C@H](C(=O)N(c2ccc(-c3ccccc3)cc2)C(C(=O)NC2CCC(F)(F)CC2)c2cnccc2C(F)(F)F)N(C#N)C1` (single isomer, unassigned) [1349 Isomer 1] was tested, and the EC50 (229E Mpro) was < 2000 nM and the IC50 (HCov OC43) was < 2 µM.

In the case of `C[C@@]1(O)C[C@H](C(=O)N(c2ccc(-c3ccccc3)cc2)C(C(=O)NC2CCC(F)(F)CC2)c2cnccc2C(F)(F)F)N(C#N)C1` (single isomer, unassigned) [1349 Isomer 2], the EC50 (229E Mpro) is reported as 2000 to 10000 nM and the IC50 (HCov OC43) is reported as 2 to 10 µM.

`C[C@H](NC(=O)C(c1cnccc1C(F)(F)F)N(C(=O)[C@H]1C[C@@](C)(O)CN1C#N)c1ccc(-c2ccccc2)cc1)c1ccccc1` (single isomer, unassigned) [1351 Isomer 1] was tested, and the EC50 (229E Mpro) was < 2000 nM and the IC50 (HCov OC43) was < 2 µM.

`C[C@H](NC(=O)C(c1cnccc1C(F)(F)F)N(C(=O)[C@H]1C[C@@](C)(O)CN1C#N)c1ccc(-c2ccccc2)cc1)c1ccccc1` (single isomer, unassigned) [1351 Isomer 2] was tested, and the EC50 (229E Mpro) was 2000 to 10000 nM and the IC50 (HCov OC43) was 2 to 10 µM.
